Pooled drug test results. Numbers come from NIAID ChemDB, via PubChem.

Shared fields: whole-cell or culture tests

ECn: concentration that inhibits the pathogen or its effect by n%. Zones are inhibition diameters on agar. MIC50, MIC90 and the like: level of inhibition, or share of isolates inhibited. Percent inhibition refers to the dose given; in toxicity tests it is the harm to the cells. Conditions beyond the fields shown may differ between rows. Blank or dashed fields: not listed here.

structure	species	strain	changes	cells	read by	endpoint	dose	result
NC(=O)c1csc([C@@H]2O[C@H](CO)[C@@H](O)[C@H]2O)n1	Reovirus	TYPE 3/ABNEY	-	HeLa	cytopathic effect	EC50	-	3 µg/mL
OC(Cn1cncn1)(Cn1cncn1)c1ccc(F)cc1F	Candida albicans	YL 360	-	-	broth dilution	MIC	-	256 µg/mL
O=c1cnn([C@@H]2O[C@H](CO)[C@@H](O)[C@H]2O)c(=O)[nH]1	West Nile virus	NEW YORK	-	MA-104	virus yield	EC90	-	0.3 µg/mL
C#CC[C@@H](C(=O)N[C@H](/C=C/C(=O)OCC)C[C@@H]1CCNC1=O)n1cccc(NC(=O)c2cc(C)on2)c1=O	Rhinovirus	Serotype 59	-	H1-HELA	cytopathic effect / XTT	EC50	-	0.016 µM
NC(=O)c1c[se]c([C@@H]2O[C@H](CO)[C@@H](O)[C@H]2O)n1	West Nile virus	NEW YORK	-	VERO	cytopathic effect	EC50	-	6.2 µg/mL
Nc1nc2c(ncn2COCCO)c(=O)[nH]1	Cryptosporidium parvum	-	-	-	-	inhibition	1 µg/mL	7%
CC(C)OC(=O)OCOP(=O)(CO[C@H](C)Cn1cnc2c(N)ncnc21)OCOC(=O)OC(C)C	HIV-2	ROD9	-	MAGIC-5A	β-galactosidase / absorbance	EC50	-	0.0064 µM
Cc1cn([C@@H]2O[C@H](CO)[C@@H](O)[C@@H]2O)c(=O)[nH]c1=O	Cryptosporidium parvum	-	-	-	-	inhibition	10 µg/mL	0%
NC(=O)c1[nH]nc([C@@H]2O[C@H](CO)[C@@H](O)[C@H]2O)c1O	West Nile virus	NEW YORK	-	VERO	cytopathic effect	EC50	-	1.8 µg/mL
N[C@@H](C(=O)N[C@@H]1C(=O)N2C(C(=O)O)=C(Cl)CS[C@H]12)c1ccccc1	Haemophilus influenzae	44 strains	-	-	-	MIC90	-	2 µg/mL
NC(=O)c1csc([C@@H]2O[C@H](COP(=O)(O)CP(=O)(O)OC[C@H]3O[C@@H](n4cnc5c(N)ncnc54)[C@H](O)[C@@H]3O)[C@@H](O)[C@H]2O)n1	West Nile virus	Uganda	-	VERO	cytopathic effect	EC50	-	53 µg/mL
CC1(C)S[C@@H]2[C@H](NC(=O)[C@H](N)c3ccc(O)cc3)C(=O)N2[C@H]1C(=O)O	Haemophilus influenzae	44 strains	-	-	-	MIC50	-	8 µg/mL
Nc1nc(N)c2ncn(CCOCP(=O)(O)O)c2n1	Varicella zoster virus	OKA	-	HEL	plaque count	EC50	-	0.7 µg/mL
NC[C@@H]1O[C@H](O[C@H]2[C@@H](O)[C@H](O[C@@H]3[C@@H](O)[C@H](N)C[C@H](N)[C@H]3O[C@H]3O[C@H](CO)[C@@H](O)[C@H](O)[C@H]3N)O[C@@H]2CO)[C@H](N)[C@@H](O)[C@@H]1O	Cryptosporidium parvum	-	-	-	-	inhibition	10 µg/mL	11%
C#C[C@]1(CO)O[C@@H](n2cnc3c(N)nc(F)nc32)CC1O	HIV-2	ROD9	K65R Q151M M184V	MAGIC-5A	β-galactosidase / absorbance	EC50	-	0.0062 µM
CO/N=C(/C(=O)N[C@@H]1C(=O)N2C(C(=O)O)=C(COC(N)=O)CS[C@H]12)c1ccco1	Staphylococcus aureus	30 strains	-	-	-	MIC50	-	1 µg/mL
Nc1nc(=O)n([C@H]2C[C@H](O)[C@@H](CO)O2)cc1I	Cryptosporidium parvum	-	-	-	-	inhibition	50 µg/mL	90%
CO[C@@H]1[C@@H](O[C@@H]2O[C@H](C)[C@@H](O[C@H]3C[C@@](C)(O)[C@@H](O)[C@H](C)O3)[C@H](N(C)C)[C@H]2O)[C@@H](CC=O)C[C@@H](C)[C@@H](O[C@H]2CC[C@H](N(C)C)[C@H](C)O2)/C=C/C=C/C[C@@H](C)OC(=O)C[C@H]1O	Toxoplasma gondii	-	-	-	-	inhibition	2 µg/mL	58%
CC(C)[Si]1(C(C)C)OC[C@H]2O[C@@H](n3cnc4cc(Cl)c(Cl)cc43)[C@H](O)[C@H]2O[Si](C(C)C)(C(C)C)O1	Sindbis virus	-	-	HeLa	cytopathic effect	EC50	-	>10 µg/mL
COC(=O)Nc1nc2ccc(C(=O)c3cccs3)cc2[nH]1	Cryptococcus neoformans	IU8698	-	-	-	EC50	-	<0.12 µg/mL
O=C[C@@H](CO)O[C@H](C=O)n1ccc(=O)[nH]c1=O	West Nile virus	NEW YORK	-	VERO	cytopathic effect / visual reading	EC50	-	>250 µg/mL
O=[N+]([O-])c1cc(Cl)c(Cl)cc1[N+](=O)[O-]	Reovirus	TYPE 1	-	HeLa	cytopathic effect	EC50	-	>4 µg/mL
O=C(O)CP(=O)(O)O	Varicella zoster virus	PMEA-resistant	-	HEL	plaque count	EC50	-	21.5 µg/mL
CC(=O)OC[C@H]1O[C@@H](n2ncc(=O)[nH]c2=O)[C@H](OC(C)=O)[C@@H]1OC(C)=O	West Nile virus	NEW YORK	-	MA-104	cytopathic effect / visual reading	EC50	-	0.5 µg/mL
COC(=O)Nc1nc2ccccc2[nH]1	Cryptococcus neoformans	ATCC 14116	-	-	-	EC50	-	1.6 µg/mL
COc1c(C)c2c(c(O)c1C/C=C(\C)CCC(=O)O)C(=O)OC2	West Nile virus	NEW YORK	-	MA-104	virus yield	EC90	-	0.3 µg/mL
OC[C@H]1O[C@@H](n2cnc3cc(Cl)c(Cl)cc32)[C@H](O)[C@@H]1O	Sindbis virus	-	-	HeLa	cytopathic effect	EC50	-	>10 µg/mL
CCCOc1ccc2nc(NC(=O)OC)[nH]c2c1	Cryptococcus neoformans	IU8698	-	-	-	EC90	-	2.1 µg/mL
O=C1C=CN([C@@H]2O[C@H](CO)[C@@H](O)[C@H]2O)C(=O)C1	West Nile virus	Uganda	-	VERO	cytopathic effect / visual reading	EC50	-	320 µg/mL
OC[C@H]1O[C@@H](n2cnc3cc(Cl)c(Cl)cc32)[C@H](O)[C@H]1O	Reovirus	TYPE 1	-	HeLa	cytopathic effect	EC50	-	>100 µg/mL
Nc1ncnc2c1ncn2C[C@@H](CO)OCP(=O)(O)O	Varicella zoster virus	PMEDAP-resistant	-	HEL	plaque count	EC50	-	0.014 µg/mL
CC(C)[Si]1(C(C)C)OC[C@H]2O[C@@H](n3cnc4cc(Cl)c(Cl)cc43)[C@@H](O)[C@H]2O[Si](C(C)C)(C(C)C)O1	Reovirus	TYPE 1	-	HeLa	cytopathic effect	EC50	-	>10 µg/mL
O=c1[nH]c(=O)n([C@@H]2O[C@H](CO)[C@@H](O)[C@@H]2O)cc1/C=C/Br	Varicella zoster virus	PCV-resistant/A	-	HEL	plaque count	EC50	-	0.00012 µg/mL
Clc1cc2nc[nH]c2cc1Cl	Reovirus	TYPE 1	-	HeLa	cytopathic effect	EC50	-	>10 µg/mL
NC(=O)c1ncn([C@@H]2O[C@H](CO)[C@@H](O)[C@H]2O)n1	Cryptosporidium parvum	-	-	-	-	inhibition	100 µg/mL	89%
OC[C@H]1O[C@@H](n2cnc3cc(Cl)c(Cl)cc32)[C@@H](O)[C@H]1O	Sindbis virus	-	-	HeLa	cytopathic effect	EC50	-	>100 µg/mL
COc1cc2oc(=O)ccc2cc1CC(O)C(C)(C)O	Klebsiella pneumoniae	ESBL-3967	-	-	agar diffusion	zone	250 µg/disc	9 mm
O=c1cnn([C@@H]2O[C@H](CO)[C@@H](O)[C@H]2O)c(=O)[nH]1	Dengue virus	TYPE 4 (YUNH)	-	VERO	virus yield	EC90	-	<0.3 µg/mL
Cc1ccc(C(=O)Nc2ccc(S(=O)(=O)O)c3cc(S(=O)(=O)O)cc(S(=O)(=O)O)c23)cc1NC(=O)c1cccc(NC(=O)Nc2cccc(C(=O)Nc3cc(C(=O)Nc4ccc(S(=O)(=O)O)c5cc(S(=O)(=O)O)cc(S(=O)(=O)O)c45)ccc3C)c2)c1	West Nile virus	Uganda	-	VERO	cytopathic effect / visual reading	EC50	-	>80 µg/mL
CCC(C)n1ncn(-c2ccc(N3CCN(c4ccc(OC[C@H]5CO[C@](Cn6cncn6)(c6ccc(Cl)cc6Cl)O5)cc4)CC3)cc2)c1=O	Candida albicans	Isogenic isolate 14 Erg11 (4-5X) R467K	-	-	-	MIC	-	0.06 µg/mL

The last 4 rows once more:

structure	species	strain	changes	cells	read by	endpoint	dose	result
COc1cc2oc(=O)ccc2cc1CC(O)C(C)(C)O	Klebsiella pneumoniae	ESBL-3967	-	-	agar diffusion	zone	250 µg/disc	9 mm
O=c1cnn([C@@H]2O[C@H](CO)[C@@H](O)[C@H]2O)c(=O)[nH]1	Dengue virus	TYPE 4 (YUNH)	-	VERO	virus yield	EC90	-	<0.3 µg/mL
Cc1ccc(C(=O)Nc2ccc(S(=O)(=O)O)c3cc(S(=O)(=O)O)cc(S(=O)(=O)O)c23)cc1NC(=O)c1cccc(NC(=O)Nc2cccc(C(=O)Nc3cc(C(=O)Nc4ccc(S(=O)(=O)O)c5cc(S(=O)(=O)O)cc(S(=O)(=O)O)c45)ccc3C)c2)c1	West Nile virus	Uganda	-	VERO	cytopathic effect / visual reading	EC50	-	>80 µg/mL
CCC(C)n1ncn(-c2ccc(N3CCN(c4ccc(OC[C@H]5CO[C@](Cn6cncn6)(c6ccc(Cl)cc6Cl)O5)cc4)CC3)cc2)c1=O	Candida albicans	Isogenic isolate 14 Erg11 (4-5X) R467K	-	-	-	MIC	-	0.06 µg/mL